Results deposited as PubChem BioAssay AID1224833 (University of Georgia, 2016).

- Aim: 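Human genes whose knock-down alters rotavirus replication in monkey cells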 (primary screen)
- Cell system: monkey MA104 kidney cells
- Knock-down reagent: siRNA pool against human genes, 50 nM
- Duration: 48 h knock-down before infection; read 24 h after infection
- Challenge: infection with rotavirus strain RV3 two days after transfection; infectious dose for this stage not given
- Measurement: 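z-score of rotavirus antigen signal per well, from a fluorescent immunoassay, relative to non-targeting control wells on the same plate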
- Direction: z-score vs non-targeting control: higher = more rotavirus replication than with non-targeting control
- Active means: In these data the active calls have z-score vs non-targeting control at about -1 or lower, or at about 1 or higher
- Calls: active = z-score beyond 1 either way; inactive = z-score within 1 of zero
The deposit covers about 12,000 reagents; shown is an unselected part. In the full data, about 5,600 (46%) are marked active. 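Active calls cover z-scores past 1 in both directions, so they include lowered as well as raised rotavirus replication.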

PDLIM4 (PDZ and LIM domain 4): z-score vs non-targeting control = 0.45; outcome = inactive
KATNB1 (katanin regulatory subunit B1): z-score vs non-targeting control = -0.916; outcome = inactive
SLC22A1: z-score vs non-targeting control = 1.32; outcome = active
ZNF771 (zinc finger protein 771): z-score vs non-targeting control = -2.16; outcome = active
BEX4 (brain expressed X-linked 4): z-score vs non-targeting control = 2.02; outcome = active
ZNF813 (zinc finger protein 813): z-score vs non-targeting control = -1.35; outcome = active
DNAI1 (dynein axonemal intermediate chain 1): z-score vs non-targeting control = -1.01; outcome = active
BANF1 (barrier to autointegration nuclear assembly factor 1): z-score vs non-targeting control = -0.315; outcome = inactive
WDFY1 (WD repeat and FYVE domain containing 1): z-score vs non-targeting control = -2.28; outcome = active
CYP26C1 (cytochrome P450 family 26 subfamily C member 1): z-score vs non-targeting control = 0.0832; outcome = inactive
ASPNAT (aspartate N-acetyltransferase): z-score vs non-targeting control = 1.36; outcome = active
MED8 (mediator complex subunit 8): z-score vs non-targeting control = 0.777; outcome = inactive
BCCIP (BRCA2 and CDKN1A interacting protein): z-score vs non-targeting control = -0.997; outcome = inactive
PARL (presenilin associated rhomboid like): z-score vs non-targeting control = 0.23; outcome = inactive
KLK7 (kallikrein related peptidase 7): z-score vs non-targeting control = 0.791; outcome = inactive
SGCE (sarcoglycan epsilon): z-score vs non-targeting control = -0.783; outcome = inactive

A portion taken from the entries so far:
ZNF771 (zinc finger protein 771): z-score vs non-targeting control = -2.16; outcome = active
BEX4 (brain expressed X-linked 4): z-score vs non-targeting control = 2.02; outcome = active

The listing continues:
ZMYM4 (zinc finger MYM-type containing 4): z-score vs non-targeting control = 0.484; outcome = inactive
BICRA: z-score vs non-targeting control = -0.573; outcome = inactive
ZFC3H1 (zinc finger C3H1-type containing): z-score vs non-targeting control = -0.867; outcome = inactive
OR4C45: z-score vs non-targeting control = -0.439; outcome = inactive
MAD2L1 (mitotic arrest deficient 2 like 1): z-score vs non-targeting control = 1.23; outcome = active
NUBPL (NUBP iron-sulfur cluster assembly factor, mitochondrial): z-score vs non-targeting control = 1.26; outcome = active
ECH1 (enoyl-CoA hydratase 1): z-score vs non-targeting control = 0.879; outcome = inactive
RILPL2 (Rab interacting lysosomal protein like 2): z-score vs non-targeting control = -0.817; outcome = inactive
TMEM14C (transmembrane protein 14C): z-score vs non-targeting control = -1.95; outcome = active
MAD2L2 (mitotic arrest deficient 2 like 2): z-score vs non-targeting control = 0.576; outcome = inactive
PCDHA5 (protocadherin alpha 5): z-score vs non-targeting control = -0.434; outcome = inactive
CDY2A (chromodomain Y-linked 2A): z-score vs non-targeting control = -1.65; outcome = active
NDUFB2 (NADH:ubiquinone oxidoreductase subunit B2): z-score vs non-targeting control = 3.53; outcome = active
DAXX (death domain associated protein): z-score vs non-targeting control = -1.66; outcome = active
ORC6 (origin recognition complex subunit 6): z-score vs non-targeting control = -1.08; outcome = active
FLVCR1 (FLVCR choline and heme transporter 1): z-score vs non-targeting control = -0.572; outcome = inactive
